Laboratory results as given in patent US20210338708A1, “METHOD FOR TREATMENT OF CORONAVIRUS INFECTION” (Renibus Therapeutics, Inc., priority 2020, published 2021).

Test system: SARS-CoV-2
Test: Reduction of virus-induced cytopathic effect (visual and neutral red) within secondary assay
Type: cell-based, SARS-CoV-2 USA_WA1/2020
Description: Confluent or near-confluent cell culture monolayers of Vero 76 cells are prepared in 96-well disposable microplates the day before testing. Cells are maintained in minimum essential medium (MEM) supplemented with 5% FBS. For antiviral assays the same medium is used but with FBS reduced to 2% and supplemented with 50-μg/ml gentamicin. Compounds are dissolved in DMSO, saline or the diluent requested by the submitter. […] The test compound is prepared at four serial log 10 concentrations, usually 0.1, 1.0, 10, and […] or μM (per sponsor preference). Lower concentrations are used when insufficient compound is supplied. Five microwells are used per dilution: three for infected cultures and two for uninfected toxicity cultures. Controls for the experiment consist of six microwells that are infected and not treated (virus controls) and six that are untreated and uninfected (cell controls) on every plate. A known active drug is tested in parallel as a positive control drug using the same method as is applied for test compounds. […]
Growth media is removed from the cells and the test compound is applied in 0.1 ml volume to wells at 2× concentration. […] The dye content in each well is quantified using a spectrophotometer at 540 nm wavelength. […]
Active compounds are further tested in a confirmatory assay. […] The incorporated dye content is quantified as described above to generate the EC50 and CC50 values.

## C=CC1=C(C)c2cc3[n-]c(cc4[n-]c(cc5nc(cc1n2)C(C)=C5C=C)c(C)c4CCC(=O)O)c(CCC(=O)O)c3C.[Sn+2] [RBT-9, Stannous protoporphyrin]
CC50/EC50, neutral red
  NR SI: 26
CC50/EC50, visual
  VIS SI: 18
